Anti-infective test results gathered from many reports (values: NIAID ChemDB through PubChem).

All rows: tests on isolated targets

Blank or dashed fields: not listed here. Inhibition is in % at the dose shown (toxicity tests: loss of growth or viability). ICn: concentration for n% inhibition. Neighbouring rows are from separate reports. a–b is a range or a potency band.

SMILES	target	strain	endpoint	method	dose	species	result
Cc1cc(S(=O)(=O)N(Cc2cccc(I)c2)c2cc(-c3ccccc3)sc2C(=O)O)c(C)cc1Cl	NS3 ATPase		IC50			Hepatitis C virus	5–20 µM
O=c1cc(-c2ccccc2)oc2c(O)c(O)ccc12	Replicase complex	J4	inhibition	SYBR Green	20 µM	Hepatitis C virus	30.8%
O=C(NCc1csc2ccccc12)Nc1cscc1-c1nc(C(=O)O)c(O)c(=O)[nH]1	HCV polymerase		IC50			Hepatitis C virus	<25 µM
COc1cc(-c2oc3cc(O)cc(O)c3c(=O)c2O)ccc1O	Replicase complex	J4	inhibition	SYBR Green	20 µM	Hepatitis C virus	77.6%
CN1CCN(c2cc(C(=O)Nc3ccc4cn[nH]c4c3)c(F)cc2F)CC1	Nonstructural protein 5B		inhibition		0.1 µg/mL	Hepatitis C virus	0%
C=CC(=O)NCC(=O)N1C[C@H](Oc2nccc3ccc(Br)cc23)C[C@H]1C(=O)N[C@]1(C(=O)NS(=O)(=O)C2CC2)C[C@H]1C=C	Nonstructural protein 3/4A	1b R155K	IC50	FRET		Hepatitis C virus	0.065 µM
COc1cc(C)c(S(=O)(=O)N(Cc2ccc(-c3cc4ccccc4o3)cc2)[C@@H](Cc2ccccc2)C(=O)O)c(C)c1C	RNA-dependent RNA polymerase		IC50			Hepatitis C virus	<5 µM
O=C1/C(=C\c2ccc(/C=C/c3ccccc3)cc2)SC(=S)N1NS(=O)(=O)c1cccc([N+](=O)[O-])c1	NS5B polymerase		IC50			Hepatitis C virus	≤30 µM
Cc1ccc(S(=O)(=O)N(C)c2cc(-c3ccccc3)sc2C(=O)O)c(C)c1	NS3 ATPase		IC50			Hepatitis C virus	<5 µM
O=C(Nc1ccc2[nH]ncc2c1)c1cc(C2CCNCCN2)c(F)cc1F	Reverse transcriptase		IC50			Hepatitis B virus	0.1–1 µg/mL
COc1cc(C)c(S(=O)(=O)N(Cc2ccc(-c3cc4ccccc4o3)cc2)[C@H](Cc2ccccc2)C(=O)O)c(C)c1C	RNA-dependent RNA polymerase		IC50			Hepatitis C virus	<5 µM
O=C(O)c1sc(-c2ccccc2)cc1N(C(=O)c1ccc(Cl)cc1Cl)C1CCCC[C@@H]1O	NS3 ATPase		IC50			Hepatitis C virus	<5 µM
O=C(CSc1ccccc1)Nc1ccsc1-c1nc(C(=O)O)c(O)c(=O)[nH]1	HCV polymerase		IC50			Hepatitis C virus	<25 µM
O=C(Nc1ccc2cn[nH]c2c1)c1cc(N2CCC(O)CC2)c(F)cc1F	Reverse transcriptase		inhibition		0.01 µg/mL	Hepatitis B virus	24%
CC(=O)Nc1ccsc1-c1nc(C(=O)O)c(O)c(=O)[nH]1	HCV polymerase		IC50			Hepatitis C virus	<25 µM
Cc1ccc(C(=O)N(c2cc(-c3ccccc3)sc2C(=O)O)C2CCN(C(=O)OC(C)(C)C)CC2)cc1	NS3 ATPase		IC50			Hepatitis C virus	<5 µM
O=C(c1ccc(CN(c2ccc(Cl)cc2Cl)[C@@H](Cc2ccccc2)C(=O)O)cc1)c1ccc(F)c(F)c1	RNA-dependent RNA polymerase		IC50			Hepatitis C virus	<5 µM
O=C(Nc1ccsc1-c1nc(C(=O)O)c(O)c(=O)[nH]1)c1ccccc1Oc1ccccc1	HCV polymerase		IC50			Hepatitis C virus	<25 µM
O=c1c(O)c(-c2ccc(O)c(O)c2)oc2c(O)c(O)cc(O)c12	Replicase complex	J4	inhibition	SYBR Green	20 µM	Hepatitis C virus	74.6%
O=C1NC(=S)S/C1=C\c1ccco1	NS5B polymerase		IC50			Hepatitis C virus	≤30 µM
Cc1cc(S(=O)(=O)Nc2cc(-c3ccccc3)sc2C(N)=O)c(C)cc1Cl	NS3 ATPase		IC50			Hepatitis C virus	<5 µM
COC(=O)c1nc(-c2sccc2NC(=O)C(N)c2ccccc2)[nH]c(=O)c1O	HCV polymerase		IC50			Hepatitis C virus	<50 µM
O=C(O)c1sc(-c2ccccc2)cc1NS(=O)(=O)c1cccs1	NS3 ATPase		IC50			Hepatitis C virus	<5 µM
O=C(Nc1ccc2[nH]ncc2c1)c1cc(N2CCC(O)CC2)c(F)cc1F	Nonstructural protein 5B		inhibition		0.1 µg/mL	Hepatitis C virus	30%
O=C(Nc1cccc(-c2nc(C(=O)O)c(O)c(=O)[nH]2)c1)c1ccccc1	HCV polymerase		IC50			Hepatitis C virus	<100 µM
COc1cc(C)c(S(=O)(=O)N(Cc2ccc(-c3cc4ccccc4o3)cc2)[C@@H](Cc2ccc(O)cc2)C(=O)O)c(C)c1C	RNA-dependent RNA polymerase		IC50			Hepatitis C virus	<5 µM
CC[NH+](CC)c1ncc(CN(C(=O)c2ccc(Cl)cc2Cl)c2cc(-c3ccccc3)sc2C(=O)O)s1	NS3 ATPase		IC50			Hepatitis C virus	<5 µM
O=C(NCc1ccccc1)Nc1cccc(-c2nc(C(=O)O)c(O)c(=O)[nH]2)c1	HCV polymerase		IC50			Hepatitis C virus	<100 µM
Cc1ccccc1S(=O)(=O)Nc1cc(-c2ccccc2)sc1C(=O)O	NS3 ATPase		IC50			Hepatitis C virus	>20 µM
O=C(Nc1ccc2cn[nH]c2c1)c1cc(N2CCN(CCO)CC2)c(F)cc1F	Reverse transcriptase		inhibition		0.1 µg/mL	Hepatitis B virus	50%
O=C1NC(=S)S/C1=C/c1ccc(Br)cc1	NS5B polymerase		IC50			Hepatitis C virus	≤30 µM
CC1=NCCN1c1cc(C(=O)Nc2ccc3[nH]ncc3c2)c(F)cc1F	Nonstructural protein 5B		inhibition		1 µg/mL	Hepatitis C virus	10%
N#Cc1cccc(NC(=O)Nc2cccc(-c3nc(C(=O)O)c(O)c(=O)[nH]3)c2)c1	HCV polymerase		IC50			Hepatitis C virus	<100 µM
O=c1c(-c2ccc(O)cc2)coc2cc(OC3OC(CO)C(O)C(O)C3O)cc(O)c12	Replicase complex	J4	inhibition	SYBR Green	20 µM	Hepatitis C virus	13.1%
O=C(Nc1ccc2[nH]ncc2c1)c1cc(N2CCN(CCO)CC2)c(F)cc1F	Reverse transcriptase		inhibition		0.1 µg/mL	Hepatitis B virus	30%
O=C(Nc1cscc1-c1nc(C(=O)O)c(O)c(=O)[nH]1)OCc1ccccc1F	HCV polymerase		IC50			Hepatitis C virus	<25 µM
COc1cc(/C=C2/SC(=S)N(NS(=O)(=O)c3ccccc3)C2=O)cc(Br)c1OC	NS5B polymerase		IC50			Hepatitis C virus	≤30 µM
O=C(Nc1ccc2cn[nH]c2c1)c1cc(N2CCNCC2)c(F)cc1F	Nonstructural protein 5B		IC50			Hepatitis C virus	>10 µg/mL
O=C(O)[C@H](Cc1ccccc1)N(Cc1ccc(-c2ccc(Cl)c(Cl)c2)o1)C(=O)c1ccc(Cl)cc1Cl	RNA-dependent RNA polymerase		IC50			Hepatitis C virus	<5 µM

A second listing of 5 rows from above:

SMILES,target,strain,endpoint,method,dose,species,result
O=C(O)c1sc(-c2ccccc2)cc1NS(=O)(=O)c1cccs1,NS3 ATPase,,IC50,,,Hepatitis C virus,<5 µM
COc1cc(C)c(S(=O)(=O)N(Cc2ccc(-c3cc4ccccc4o3)cc2)[C@@H](Cc2ccc(O)cc2)C(=O)O)c(C)c1C,RNA-dependent RNA polymerase,,IC50,,,Hepatitis C virus,<5 µM
O=C1NC(=S)S/C1=C\c1ccco1,NS5B polymerase,,IC50,,,Hepatitis C virus,≤30 µM
O=C(Nc1ccc2cn[nH]c2c1)c1cc(N2CCC(O)CC2)c(F)cc1F,Reverse transcriptase,,inhibition,,0.01 µg/mL,Hepatitis B virus,24%
O=C(Nc1ccc2[nH]ncc2c1)c1cc(N2CCN(CCO)CC2)c(F)cc1F,Reverse transcriptase,,inhibition,,0.1 µg/mL,Hepatitis B virus,30%